Measurements published in patent US20170088605A1 (Novartis, published 2017).
Changes are numbered by the printed parent chain.

T1: BKV serotype I VP1 pentamer (BK virus serotype I, UniProt P03088 30-297)
T1 construct: also called serotype I pentamers; BKV-VP1 serotype I pentameric protein
T1 chain: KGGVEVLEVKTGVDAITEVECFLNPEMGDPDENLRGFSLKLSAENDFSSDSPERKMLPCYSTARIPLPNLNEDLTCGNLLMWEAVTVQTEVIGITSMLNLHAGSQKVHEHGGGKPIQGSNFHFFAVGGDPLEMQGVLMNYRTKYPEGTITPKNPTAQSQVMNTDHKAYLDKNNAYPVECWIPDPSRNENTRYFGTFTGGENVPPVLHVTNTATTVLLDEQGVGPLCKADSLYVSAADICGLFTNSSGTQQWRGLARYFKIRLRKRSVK

T2: BKV serotype III VP1 pentamer (BK virus serotype III, UniProt P14996 30-297)
T2 construct: also called serotype III pentamers
T2 chain: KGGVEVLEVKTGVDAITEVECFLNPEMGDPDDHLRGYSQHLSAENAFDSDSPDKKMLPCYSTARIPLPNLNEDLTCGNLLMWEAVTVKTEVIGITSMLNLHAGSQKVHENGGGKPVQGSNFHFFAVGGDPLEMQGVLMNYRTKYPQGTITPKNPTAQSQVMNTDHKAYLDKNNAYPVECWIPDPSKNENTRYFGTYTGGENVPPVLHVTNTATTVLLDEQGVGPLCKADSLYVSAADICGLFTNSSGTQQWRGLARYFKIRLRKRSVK

T3: BKV serotype IV VP1 pentamer (BK virus serotype IV, UniProt P14996 30-297)
T3 construct: also called serotype IV pentamers
T3 chain: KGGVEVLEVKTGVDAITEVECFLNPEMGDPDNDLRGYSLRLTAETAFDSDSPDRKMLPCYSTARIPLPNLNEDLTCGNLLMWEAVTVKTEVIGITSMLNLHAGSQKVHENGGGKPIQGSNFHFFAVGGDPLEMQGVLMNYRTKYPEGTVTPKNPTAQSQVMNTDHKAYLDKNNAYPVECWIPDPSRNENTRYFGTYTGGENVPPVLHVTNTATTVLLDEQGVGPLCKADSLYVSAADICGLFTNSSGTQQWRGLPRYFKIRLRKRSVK

T4: BKV serotype III VLP (BK virus serotype III, UniProt P14996 1-362)
T4 construct: also called serotype III VLPs
T4 chain: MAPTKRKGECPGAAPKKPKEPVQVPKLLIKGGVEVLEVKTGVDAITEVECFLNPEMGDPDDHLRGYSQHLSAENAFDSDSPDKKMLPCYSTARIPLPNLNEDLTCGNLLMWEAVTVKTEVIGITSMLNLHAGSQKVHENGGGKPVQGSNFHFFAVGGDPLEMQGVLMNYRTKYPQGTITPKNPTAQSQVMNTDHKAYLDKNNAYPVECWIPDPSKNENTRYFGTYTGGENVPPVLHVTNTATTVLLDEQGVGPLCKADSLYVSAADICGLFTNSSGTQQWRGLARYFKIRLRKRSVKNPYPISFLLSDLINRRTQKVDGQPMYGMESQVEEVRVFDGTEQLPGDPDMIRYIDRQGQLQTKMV

B1: EBB-C1975-E7 (antibody, human IgG1, kappa, V domains shown)
VH: EVQLLESGGGLVRPGGSLRVSCAASGFTVSRNYMSWVRQAPGKGLEWVSGIYGGGRTYYAESVKGRFTISRDYSKNTLFLQMNTLRVEDTALYFCAREDEFWSGYSAGVDWGQGTLVTVSS
VL: DIQVTQSPSSLSASVGDRVTITCRASQSISSYLNWYQQEPGKAPKLLIYAASTLQTGVPSRFSGSGSGTDFTLTISSLQPEDFATYYCQQSYNTPRTFGQGTKVEIKR
B2: P8D11 (antibody, human IgG1, lambda)
heavy: not shown
light: QSVLTQPPSVSVAPGKTARITCGGDNIGSRPVHWYQQKPGQAPILVVYDDSNRPSGIPERFSGSNSGNTATLTISRVEAGDEADYYCQVWSSSTDHPFGGGTKVTVLGQPKAAPSVTLFPPSSEELQANKATLVCLISDFYPGAVTVAWKADSSPVKAGVETTTPSKQSNNKYAASSYLSLTPEQWKSHRSYSCQVTHEGSTVEKTVAPTECS
B3: P7G11 (antibody, human IgG1, lambda, V domains shown)
VH: QVQLQESGPGLAKPSQTLSLTCSVSGGSISSGGYSWSWIRQPPGKGLEYIGYIYYRGTTYYNPSLKSRITMSVDTSNNQISLKLTSVTAADTAVYYCARALTHLVGVGWFDPWGQGTMVTVSS
VL: QSVLTQPPSVSAAPGQKVTISCSGGSSNLGSNYVSWYQQLPGTAPKLLIYDNNKRPSGIPDRFSGSKSGTSATLGITGLQTGDEADYYCGTWDGSLSAWVFGGGTKVTVLG
B4: NEG447A (antibody, human IgG1, lambda, V domains shown)
VH: QVQLQESGPGLVKPSETLSLTCTVSGGSISRDYWSWVRQPPGAGLEWIGNIYYSGSTNYNPSLKSRVTISVATNKKQFSLKLTSVTAADTAVYYCARVPGCSSTSCIDGWFDPWGQGILVTVSS
VL: B3 VL with G25S, L29I, S31N, N32T, G94S, K106R, V107L
B5: EBB-C1975-A3 (antibody, V domains shown)
VH: B1 VH with L5V, S7T, R13Q, V20L, S30R, G53S, R56S, E61D, F79S, L92V
VL: not shown
B6: EBB-C1975-A7 (antibody, V domains shown)
VH: B1 VH with E1Q, L5V, R13Q, V20L, G53S, R56S, E61D, F79S, L92V
VL: not shown

Legend:
[1] = target: T1, BKV serotype I VP1 pentamer; experiment: SPR, antibody captured on Protein A
[2] = target: T2, BKV serotype III VP1 pentamer; experiment: SPR, antibody captured on Protein A
[3] = target: T3, BKV serotype IV VP1 pentamer; experiment: ELISA on coated BKV serotype IV VP1 pentamers
BKV serotype III VLP = target: T4, BKV serotype III VLP; experiment: SPR (Biacore): antibody captured via Protein A, VLPs flowed over; concentrations not given
JCV L55F mutant VLP [4] = target: T5, JCV L55F mutant VLP (JC virus, UniProt P03089 1-354); experiment: SET assay
JCV S269F mutant VLP = JCV S269F mutant VLP (JC virus, UniProt P03089 1-354); experiment: SET (solution equilibrium titration) on JCV VLPs
JCV L55F mutant VLP [5] = target: T5, JCV L55F mutant VLP; experiment: SET (solution equilibrium titration) on JCV VLPs
[6] = target: T1, BKV serotype I VP1 pentamer; experiment: SET (solution equilibrium titration) on VP1 pentamers
[7] = target: T3, BKV serotype IV VP1 pentamer; experiment: as above

Binder | binding result [1] | binding result [2] | binding result (BKV serotype III VLP) | also measured
B1 | no binding | no binding | no binding | IC50 [3]: 0.026 nM
B2 | – | – | – | fold lower affinity (against wild type (consensus) and S269F mutant VLPs) (JCV L55F mutant VLP [4]): ~2 fold; Kd (JCV S269F mutant VLP): 0.327 nM; Kd (JCV L55F mutant VLP [5]): 0.933 nM
B3 | – | – | – | Kd [6]: 0.0042 nM
B4 | – | – | – | Kd [7]: 0.185 nM
B5 | no binding | no binding | no binding | –
B6 | – | no binding | no binding | –
